Reference: paper PMC6200926, “Complementary recognition of the receptor-binding site of highly pathogenic H5N1 influenza viruses by two human neutralizing antibodies” (2018)

Target: FLD21.140 (full-length human IgG1) (human)
Assay: BLI

Question: With “A/Anhui/1/2005 H5N1 HA globular head (D55-E271), wild type (domain or fragment)” as the substance, how does the Kd read?
Answer: The Kd was 8.9 µM.
